This is a selection: effects in other tests are not listed, and their absence says nothing.
Assays:
[1] = molecular target: T1, EFR (Arabidopsis thaliana, UniProt C0LGT6); assay: ROS production in Ubi::EFR::GFP rice leaves (EFR with C-terminal GFP); format: cell-based, Arabidopsis (expressed in rice); settings: 100 nM peptide, mature leaves, at least six biological replicates
[2] = molecular target: T2, EFR::XA21 (UniProt C0LGT6+Q1MX30); assay: ROS production in Ubi::EFR::XA21::GFP rice leaves (chimeric receptor); format: cell-based, Arabidopsis/rice (expressed in rice); settings: 100 nM peptide, mature leaves, at least six biological replicates
[3] = molecular target: T1, EFR; assay: MAP kinase activation in Ubi::EFR::GFP rice leaves; format: cell-based, Arabidopsis (expressed in rice); settings: 1 μM, 0-60 minutes, anti-p42/44 western blot
[4] = molecular target: T2, EFR::XA21; assay: MAP kinase activation in Ubi::EFR::XA21::GFP rice leaves; format: cell-based, Arabidopsis/rice (expressed in rice); settings: 1 μM, 0-60 minutes, anti-p42/44 western blot
[5] = molecular target: T1, EFR; assay: Defense marker gene expression (qRT-PCR) in Ubi::EFR::GFP rice leaves; format: cell-based, Arabidopsis (expressed in rice); settings: 500 nM peptide; 2 and 12 hours; qRT-PCR normalized to actin; EFR::GFP lines
[6] = molecular target: T2, EFR::XA21; assay: Defense marker gene expression (qRT-PCR) in Ubi::EFR::XA21::GFP rice leaves; format: cell-based, Arabidopsis/rice (expressed in rice)
[7] = tested on: Arabidopsis cell cultures; settings: read-out: EC50 value (medium alkalization), double alanine substitution control, ref [27]; cited from earlier work

Chains of the proteins cited; added tags and fusions are not shown. Residues count along the entry.
UniProt C0LGT6, 25-649 limits assumed: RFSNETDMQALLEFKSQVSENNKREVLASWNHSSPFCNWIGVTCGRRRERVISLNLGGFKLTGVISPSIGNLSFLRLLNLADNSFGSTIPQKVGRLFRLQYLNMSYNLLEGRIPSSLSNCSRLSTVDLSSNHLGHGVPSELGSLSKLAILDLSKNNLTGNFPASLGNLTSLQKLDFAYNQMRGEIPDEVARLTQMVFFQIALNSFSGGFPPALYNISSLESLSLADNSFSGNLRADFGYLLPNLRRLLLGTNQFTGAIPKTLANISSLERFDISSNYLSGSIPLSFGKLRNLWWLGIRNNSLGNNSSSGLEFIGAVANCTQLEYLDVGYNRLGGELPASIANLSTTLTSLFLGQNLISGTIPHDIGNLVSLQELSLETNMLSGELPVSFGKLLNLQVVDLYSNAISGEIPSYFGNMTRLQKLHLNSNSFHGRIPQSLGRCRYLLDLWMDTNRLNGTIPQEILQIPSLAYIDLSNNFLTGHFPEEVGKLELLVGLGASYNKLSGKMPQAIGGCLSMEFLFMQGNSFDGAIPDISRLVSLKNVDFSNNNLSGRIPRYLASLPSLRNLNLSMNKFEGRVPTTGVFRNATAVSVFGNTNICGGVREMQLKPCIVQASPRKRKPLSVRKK
UniProt C0LGT6, 25-1031 limits assumed: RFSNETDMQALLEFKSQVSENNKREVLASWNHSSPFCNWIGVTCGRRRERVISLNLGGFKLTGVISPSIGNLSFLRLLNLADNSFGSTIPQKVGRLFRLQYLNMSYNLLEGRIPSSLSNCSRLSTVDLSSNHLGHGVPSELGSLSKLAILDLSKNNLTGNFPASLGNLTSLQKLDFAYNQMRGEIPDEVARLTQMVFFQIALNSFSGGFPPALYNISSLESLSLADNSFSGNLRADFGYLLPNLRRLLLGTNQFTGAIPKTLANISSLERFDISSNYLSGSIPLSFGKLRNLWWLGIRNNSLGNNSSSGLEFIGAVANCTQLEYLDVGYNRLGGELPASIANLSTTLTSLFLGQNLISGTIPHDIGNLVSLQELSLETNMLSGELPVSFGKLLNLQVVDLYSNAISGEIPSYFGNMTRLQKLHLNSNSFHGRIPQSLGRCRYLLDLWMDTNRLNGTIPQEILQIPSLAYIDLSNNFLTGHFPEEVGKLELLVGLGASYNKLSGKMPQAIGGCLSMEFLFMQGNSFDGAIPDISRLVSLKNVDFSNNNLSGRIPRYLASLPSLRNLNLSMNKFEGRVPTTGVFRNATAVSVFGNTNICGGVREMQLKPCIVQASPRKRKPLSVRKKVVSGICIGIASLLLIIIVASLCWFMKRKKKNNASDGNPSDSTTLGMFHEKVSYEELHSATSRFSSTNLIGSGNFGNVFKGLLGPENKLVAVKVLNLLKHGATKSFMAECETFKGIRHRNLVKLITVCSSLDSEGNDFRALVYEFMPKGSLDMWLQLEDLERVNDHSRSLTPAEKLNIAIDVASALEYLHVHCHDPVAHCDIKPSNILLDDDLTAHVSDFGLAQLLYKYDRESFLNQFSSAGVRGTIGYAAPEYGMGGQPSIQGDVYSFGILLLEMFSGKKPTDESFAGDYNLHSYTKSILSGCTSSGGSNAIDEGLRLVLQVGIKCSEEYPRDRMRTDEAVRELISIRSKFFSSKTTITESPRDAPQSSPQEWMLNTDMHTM
UniProt Q1MX30, 651-1025 limits assumed: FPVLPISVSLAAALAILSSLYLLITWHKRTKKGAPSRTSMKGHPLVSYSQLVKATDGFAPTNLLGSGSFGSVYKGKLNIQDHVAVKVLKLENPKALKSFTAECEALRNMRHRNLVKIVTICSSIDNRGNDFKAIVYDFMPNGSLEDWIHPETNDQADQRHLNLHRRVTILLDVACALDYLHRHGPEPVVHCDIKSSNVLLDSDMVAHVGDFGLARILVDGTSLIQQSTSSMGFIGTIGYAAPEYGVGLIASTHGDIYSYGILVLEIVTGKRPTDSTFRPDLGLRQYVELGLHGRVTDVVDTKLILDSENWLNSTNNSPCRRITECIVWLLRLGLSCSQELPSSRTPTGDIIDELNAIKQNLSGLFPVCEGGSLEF

With `CC[C@H](C)[C@H](NC(=O)[C@@H](NC(=O)CNC(=O)[C@@H](NC(=O)[C@H](CC(N)=O)NC(=O)[C@@H](NC(=O)[C@H](Cc1c[nH]cn1)NC(=O)[C@@H]1CCCN1C(=O)[C@H](CCCCN)NC(=O)[C@@H](NC(=O)[C@H](CCCNC(=N)N)NC(=O)[C@H](CCC(=O)O)NC(=O)[C@H](Cc1ccccc1)NC(=O)[C@H](CCCCN)NC(=O)[C@H](C)NC(=O)[C@H](CCCCN)NC(=O)[C@H](C)NC(C)=O)[C@@H](C)O)C(C)C)C(C)C)[C@@H](C)O)C(=O)NCC(=O)O` the ROS production [1] was “ligand dependent ROS production”, the ROS production [2] was “ligand dependent ROS production” and the MAP kinase activation [3] was “induced MAP kinase activation”. For the same compound, the MAP kinase activation [4] was “induced MAP kinase activation”, the “PR10b and Os04g10010 expression” value [5] was “up-regulated” and the “PR10b and Os04g10010 expression” value ([6]; 500 nM peptide, 2 and 12 hours, qRT-PCR normalized to actin, EFR::XA21::GFP lines) was “up-regulated”. The “PR10b expression compared to EFR::GFP expressing lines” value ([6]; 500 nM, Tukey-Kramer HSD) was “higher PR10b expression at 12 hours” and the EC50 [7] was 0.2 nM.

From PMC4379099 (PLoS Pathogens, 2015)
